Values quoted from earlier work, collected in patent publication US20060229204A1, “Control of sulfhydryl compound odor in organothiophosphate formulations” (published 2006).

Details: pH 5-9, 25° C.

In the case of CC(C)OP(=S)(OC(C)C)SCCNS(=O)(=O)c1ccccc1, the DT50 is given as greater than 200 days.
